The values below are quoted from earlier work in US5686417A, “Peptide T and related peptides in the treatment of HTLV-1 myelopathy and multiple sclerosis” (Reed MacFadden, Ltd., priority 1995, dated 1997).

For this series the following is noted: in vivo; cited from earlier work.

For `C[C@@H](N)C(=O)N[C@@H](CO)C(=O)N[C@H](C(=O)N[C@H](C(=O)N[C@H](C(=O)N[C@@H](CC(N)=O)C(=O)N[C@@H](Cc1ccc(O)cc1)C(=O)N[C@H](C(N)=O)[C@@H](C)O)[C@@H](C)O)[C@@H](C)O)[C@@H](C)O` [Peptide T, D-Ala-Ser-Thr-Thr-Thr-Asn-Tyr-Thr- Amide], the “transport from the blood to the brain” value is recorded as “active, saturable transport system”.
